Measurements taken from PubChem BioAssay AID1251 (SRMLSC, 2008).
The list shows a part of the results, in another mix than the full data. Calls of active or inactive are those of the source. No stated cut-off is given here; in the data, active means inhibition above about 30%; inactive means the rest, inconclusive results apart.

Assay: inhibitors of arbovirus infection in cells – cell-based, full library, 10K replicate subset, primary screen (AID 1251)
Conditions: arbovirus infection cell-based antiviral screen; at 10 µM; stronger effect = higher value
With `O=C(NC1CCS(=O)(=O)C1)NP(=S)(Oc1ccccc1)Oc1ccccc1` (stereo unspecified) the inhibition was inactive: 1.14%.
